# Fitness of HIV-1 1203 Vif variants in SupT1-APOBEC3G cells

Vif of 1203 (a subtype B primary isolate), residues 12-115; positions count from the first residue of the whole protein:
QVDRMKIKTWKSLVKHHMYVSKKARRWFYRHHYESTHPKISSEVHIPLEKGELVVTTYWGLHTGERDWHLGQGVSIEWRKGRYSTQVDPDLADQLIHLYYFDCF

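Pooled viruses with one designed change each in Vif went through two 72 h rounds in SupT1 cells expressing APOBEC3G. Frequencies after the second round, in three biological replicates, were compared with the merged pool after the first round. The overlap of vif with pol had been removed, so integrase is unaffected.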

Values are log2 enrichment relative to wild type (0); lower means weaker defence against APOBEC3G and poorer growth.
A change reads original residue, position, new residue.
The median of three replicates is given.
Input reads are the counts in the merged round-one pool, before selection.

mutation	input reads	log2 enrichment (median)
Q12E	214	-0.72
Q12Y	268	-1.45
D14T	271	-1.60
R15F	362	-2.17
R15Y	989	-0.67
M16C	18	0.83
M16L	515	-1.78
K17C	1253	-2.02
K17V	251	-1.62
I18S	20	1.67
K19E	584	-2.53
K19N	355	-0.79
T20E	415	-2.65
K22R	22	-0.29
K22Y	430	-2.25
S23V	285	-2.06
L24W	374	-2.51
V25E	610	-2.07
K26C	179	-1.99
H27W	203	-2.88
M29I	229	-1.73
M29K	281	-0.66
V31S	1172	-2.08
K34F	218	2.34
A35G	39	-2.13
A35P	36	-0.97
R37D	39	4.07
Y40Q	1568	-1.71
R41D	446	-2.15
R41L	131	1.72
H43C	17	-1.07
H43N	113	-0.71
S46Q	20	2.28
P49K	443	-1.78
K50F	19	-0.01
K50I	16	-0.50
K50W	22	-2.53
I51T	29	2.85
E54C	21	1.09
E54V	24	0.16
V55G	31	1.24
V55W	170	-1.72
I57E	189	-2.42
P58H	1311	-2.02
P58R	276	-2.06
L59W	223	-2.53
E60F	19	0.82
E60K	329	-2.00
E60V	231	-2.35
L64F	66	-0.56
L64I	137	-2.07
T68L	17	-1.10
Y69W	179	-1.61
G71W	254	-1.20
T74H	24	1.32
E76F	957	-2.02
R77P	58	3.95
D78T	602	-2.80
D78W	16	2.66
W79H	18	0.08
W79N	275	-2.43
L81K	21	-0.20
L81W	40	-0.27
G82D	66	-0.62
G82F	408	-2.87
G82H	379	0.79
G82W	448	-3.11
G84D	488	-1.62
G84F	761	-1.71
G84R	53	-1.37
V85G	21	-0.52
V85I	34	-0.53
V85K	31	-0.59
V85R	600	-2.42
S86G	208	-2.04
S86Y	1051	-1.72
I87Q	67	-4.11
W89Q	374	-3.05
R90F	444	-2.74
G92L	16	-0.65
G92Q	25	-2.86
Y94A	129	-2.24
T96H	243	-2.42
Q97G	384	-2.73
Q97L	103	-3.50
Q97N	227	-2.70
V98F	49	-2.48
D99S	62	-4.46
D101N	151	1.25
D101P	149	-2.41
D101S	21	-2.64
L102A	156	-2.51
L102R	40	2.46
A103G	31	-3.42
D104H	30	-1.36
D104Q	148	-3.46
Q105F	178	-0.66
I107P	149	0.81
I107Q	977	-1.81
H108L	217	-3.55
H108S	127	-2.20
Y110S	98	-4.62
F112A	236	-1.50
F112S	74	-2.64
C114L	228	-1.74
F115K	85	-2.01
F115M	515	0.49

Extract of 15 entries:

mutation	input reads	log2 enrichment (median)
G92L	16	-0.65
Y94A	129	-2.24
T96H	243	-2.42
A103G	31	-3.42
Q105F	178	-0.66
Q97N	227	-2.70
A35P	36	-0.97
R41L	131	1.72
F115M	515	0.49
Q12E	214	-0.72
D104H	30	-1.36
G92Q	25	-2.86
F115K	85	-2.01
H108L	217	-3.55
T74H	24	1.32

Positive scores are uncertain; some enriched variants did not exclude APOBEC3G in a separate test.
The scan is noisy: the rank correlation of replicates is about 0.4 to 0.65, and variants with under about 50 input reads tend to read too high.
Some changes are missing from the data or left out.

From the data files of Langley et al. 2025, preprint, doi:10.1101/2025.10.20.683452.